Legend:
[1] = biological target: biotinylated recombinant SARS-CoV-2 Beta variant (Lineage B.1.351) spike RBD (UniProt P0DTC2); test: flow cytometry on cells (HEK 293T antibody surface display system); conditions: n = 2 replicates; parent: est. 100; read off a plot
[2] = biological target: biotinylated recombinant SARS-CoV-2 wild type spike RBD (UniProt P0DTC2); test: as above; conditions: n = 2 replicates, read off a plot
[3] = biological target: biotinylated recombinant SARS-CoV-2 Delta variant (Lineage B.1.617.2) S1 protein; test: as above; conditions: n = 2 replicates, read off a plot
[4] = biological target: biotinylated recombinant SARS-CoV-2 Delta variant (Lineage B.1.617.2) S1 protein; test: HEK 293T antibody surface display library sort (DP3/DP0); conditions: n = two independent experiments; read off a plot
[5] = biological target: biotinylated recombinant SARS-CoV-2 Beta variant (Lineage B.1.351) spike RBD (UniProt P0DTC2); test: HEK 293T antibody surface display library sort (BP/BP0); conditions: n = three independent experiments; read off a plot

REGN10987 scFv displayed on the surface of HEK 293T cells D54F
percent of parent (Relative fluorescence) [1]: 270

REGN10987 scFv displayed on the surface of HEK 293T cells D54I
percent of parent (Relative fluorescence) [1]: 180

REGN10987 scFv displayed on the surface of HEK 293T cells D54L
percent of parent (Relative fluorescence) [1]: 140

REGN10987 scFv displayed on the surface of HEK 293T cells D54T
percent of parent (Relative fluorescence) [1]: 180

REGN10987 scFv displayed on the surface of HEK 293T cells D54Y
percent of parent (Relative fluorescence) [1]: 320

REGN10987 scFv displayed on the surface of HEK 293T cells L106N
percent of parent (Relative fluorescence) ([2]; parent: est. 100): 170 | percent of parent (Relative fluorescence) ([3]; parent: est. 110): 170

REGN10987 scFv displayed on the surface of HEK 293T cells L106N; N57A
percent of parent (Relative fluorescence) ([2]; parent: est. 100): 130 | percent of parent (Relative fluorescence) ([3]; parent: est. 100): 580

REGN10987 scFv displayed on the surface of HEK 293T cells L106N; N57F
percent of parent (Relative fluorescence) ([3]; parent: est. 100): 380

REGN10987 scFv displayed on the surface of HEK 293T cells L106N; N57T
percent of parent (Relative fluorescence) ([3]; parent: est. 100): 520

REGN10987 scFv displayed on the surface of HEK 293T cells N57A
enrichment [4]: 6.4 log2(FC) | percent of parent (Relative fluorescence) ([2]; parent: est. 100): 160 | percent of parent (Relative fluorescence) ([3]; parent: est. 110): 200

REGN10987 scFv displayed on the surface of HEK 293T cells N57F
percent of parent (Relative fluorescence) ([2]; parent: est. 100): 150 | percent of parent (Relative fluorescence) ([3]; parent: est. 110): 230

REGN10987 scFv displayed on the surface of HEK 293T cells N57H
percent of parent (Relative fluorescence) [1]: 170

REGN10987 scFv displayed on the surface of HEK 293T cells N57T
percent of parent (Relative fluorescence) ([2]; parent: est. 100): 160 | percent of parent (Relative fluorescence) ([3]; parent: est. 110): 240

REGN10987 scFv displayed on the surface of HEK 293T cells S97Y
percent of parent (Relative fluorescence) [1]: 190 | enrichment [5]: 2.6 log2(FC)

REGN10987 scFv displayed on the surface of HEK 293T cells S97Y; D54F
percent of parent (Relative fluorescence) [1]: 160

REGN10987 scFv displayed on the surface of HEK 293T cells S97Y; D54F; N57H
percent of parent (Relative fluorescence) [1]: 160

REGN10987 scFv displayed on the surface of HEK 293T cells S97Y; D54I
percent of parent (Relative fluorescence) [1]: 320

REGN10987 scFv displayed on the surface of HEK 293T cells S97Y; D54I; N57H
percent of parent (Relative fluorescence) ([2]; parent: est. 110): 250 | percent of parent (Relative fluorescence) [1]: 310

REGN10987 scFv displayed on the surface of HEK 293T cells S97Y; D54L
percent of parent (Relative fluorescence) [1]: 260

REGN10987 scFv displayed on the surface of HEK 293T cells S97Y; D54L; N57H
percent of parent (Relative fluorescence) ([2]; parent: est. 110): 250 | percent of parent (Relative fluorescence) [1]: 280

REGN10987 scFv displayed on the surface of HEK 293T cells S97Y; D54T
percent of parent (Relative fluorescence) [1]: 270

REGN10987 scFv displayed on the surface of HEK 293T cells S97Y; D54T; N57H
percent of parent (Relative fluorescence) [1]: 280

REGN10987 scFv displayed on the surface of HEK 293T cells S97Y; D54Y
percent of parent (Relative fluorescence) [1]: 200

REGN10987 scFv displayed on the surface of HEK 293T cells S97Y; D54Y; N57H
percent of parent (Relative fluorescence) [1]: 220

REGN10987 scFv displayed on the surface of HEK 293T cells S97Y; N57H
percent of parent (Relative fluorescence) [1]: 260
